Laboratory results taken from US20090181894A1, “CHIMERIC TOXINS FOR TARGETED THERAPY” (published 2009).

What was measured:
[1] = target: GnRH binding sites on neoplastic cells (plasma membranes of the SW-48 colon adenocarcinoma cell line in the binding assay)
[2] = target: GnRH binding sites on neoplastic cells (plasma membranes of the SW-48 colon adenocarcinoma cell line in the binding assay); remark: listed apart in the source

Q: How did the ID50, cytotoxic effect on a renal cell carcinoma primary culture (µg total protein/well) [1] turn out when “Met-GnRH-PE66 chimeric toxin (from UniProt P01148)” was run?
A: 1.2

Q: And the ID50, cytotoxic activity on Caco2 colon adenocarcinoma cells (µg total protein/well) [2]?
A: 0.4

Q: And the ID50, cytotoxic activity on HT-29 colon adenocarcinoma cells (µg total protein/well) [2]?
A: 1.2

Q: And the ID50, cytotoxic activity on HeLa cervix adenocarcinoma cells (µg total protein/well) [2]?
A: 1.8

Q: What about the ID50, cytotoxic activity on HepG2 hepatocarcinoma cells (µg total protein/well) [2] of the same substance?
A: 0.3

Q: What about the ID50, cytotoxic activity on MDA MB-231 breast adenocarcinoma cells (µg total protein/well) [2] of the same substance?
A: 2.3
